Pooled drug test results. Numbers come from NIAID ChemDB, via PubChem.

All rows: target-level tests; agent: HIV-1; protein: Reverse transcriptase; measure: fold resistance

Neighbouring rows are from separate reports.

| smiles | strain or isolate | mutations | method | value |
|---|---|---|---|---|
| Cc1c(Cc2c(Cl)cccc2Cl)nc(SCc2ccc(C#N)cc2)[nH]c1=O | - | RT-181I | nucleotide incorporation / radiometric | >3.88 |
| O=c1c2cccn2ccn1CCNC(=S)Nc1ccc(Br)cn1 | - | RT-V106A | nucleotide incorporation | 5.28 |
| O=C(O)Cn1cnc2c(=O)[nH]c(NC(=O)OCc3ccccc3)nc21 | NNRTI-resistant | Y181I | nucleotide incorporation / radiometric | 2.55 |
| Nc1ncnc2c1ncn2[C@H]1CC[C@@H](COP(=O)(O)OP(=O)(O)OP(=O)(O)O)O1 | - | RT-T215Y | nucleotide incorporation / radiometric | 2.74 |
| Cc1ccc2c(c1)n(CCNC(=S)Nc1ccc(Br)cn1)c(=O)c1cccn12 | - | RT-Y188L | nucleotide incorporation | 25 |
| Cc1cn([C@H]2C=C[C@@H](COP(=O)(O)OP(=O)(O)OP(=O)(O)O)O2)c(=O)[nH]c1=O | - | RT-Q151M | nucleotide incorporation / radiometric | 3.03 |
| CCc1cc(CCc2nc3c(Cl)ccc(Cl)c3o2)c(=O)[nH]c1C | - | RT-Y181C | nucleotide incorporation | 12 |
| CCC1(c2ccc(Cn3ccsc3=N)cc2)Oc2ccccc2-n2cccc2C1=O | - | RT-K103N | nucleotide incorporation / radiometric | 3.125 |
| Cc1cc(S(N)(=O)=O)ccc1NC(=O)COc1ccc(Cl)cc1C(=O)c1cc(Cl)cc(C#N)c1 | - | RT-V106A Y181C | fluorescence | 1.94 |
| C/C=C/CSc1cc(NC(=S)c2ccsc2C)ccc1Cl | - | RT-V106A | - | 1.35 |
| CCc1c(Sc2ccccn2)n(COCc2ccccc2)c(=O)[nH]c1=O | - | RT-Y188H | - | 1 |
| CC(C)=CCN1Cc2cc(Cl)cc3[nH]c(=O)n(c23)C[C@@H]1C | - | RT-V106A | nucleotide incorporation / radiometric | 21 |
| CCc1cc(CCc2nc3ccccc3o2)c(=O)[nH]c1C | - | RT-Y181C | nucleotide incorporation | 600 |
| CCC1(c2ccc(COc3cccnc3)cc2)Oc2ccccc2-n2cccc2C1=O | - | RT-V106A | nucleotide incorporation / radiometric | 6.25 |
| Nc1ncnc2c1ncn2[C@@H]1O[C@H](COP(=O)(O)OP(=O)(O)OP(=O)(O)O)C[C@@H]1F | - | RT-L74V | nucleotide incorporation / radiometric | 3.65 |
| Cc1c(Cc2c(Cl)cccc2Cl)nc(SCc2ccc3c(c2)C(=O)c2ccccc2C3=O)[nH]c1=O | - | RT-K103N | nucleotide incorporation / radiometric | >114 |
| O=c1c2cccn2c2cc(Cl)c(Cl)cc2n1CCNC(=S)Nc1ccc(Br)cn1 | - | RT-L100I | nucleotide incorporation | 12.5 |
| CC(C)=CCOc1cc(NC(=S)c2ccoc2C)ccc1Cl | - | RT-P225H | nucleotide incorporation / radiometric | 3.4 |
| Cc1occc1C(=S)Nc1ccc(Cl)c(/C=N/OC(C)(C)C)c1 | - | RT-V106A | - | 2.31 |
| CCN1c2ncc(CCOc3ccc(CC(=O)O)c4ccccc34)cc2C(=O)N(C)c2ccc(F)nc21 | - | RT-V106A | nucleotide incorporation / radiometric | >10 |
| CNc1ccc(Cl)cc1S(=O)(=O)c1ccccc1[N+](=O)[O-] | - | RT-K103N | - | 9.09 |
| Cc1c(Cc2c(Cl)cccc2Cl)nc(SCc2ccc3c(c2)OCO3)[nH]c1=O | - | RT-K103N | nucleotide incorporation / radiometric | >800 |
| Cc1cn([C@H]2C=C[C@@H](COP(=O)(O)OP(=O)(O)OP(=O)(O)O)O2)c(=O)[nH]c1=O | - | RT-Y188L | RT activity | 2 |
| CC(=O)c1ccc(C)cc1NC(C(N)=O)c1c(Cl)cccc1Cl | IIIB | RT-P225H | RT activity | 1.9 |
| CCC1(c2cccc(N)c2)Oc2ccccc2-n2cccc2C1=O | - | RT-Y188L | nucleotide incorporation / radiometric | >33.3 |
| c1ccc(C2SCc3nc4ccccc4n32)cc1 | - | RT-H221Y | - | ~1.5 |
| CC(C)=CCOc1cc(NC(=S)c2ccoc2C)ccc1Cl | - | RT-K103N | - | 6.97 |
| CCN1c2ncc(CCOc3ccc(CC(N)=O)c4ccccc34)cc2C(=O)N(C)c2cccnc21 | - | RT-V106A | nucleotide incorporation / radiometric | 1–10 |
| CC(C)=CCN1Cc2cccc3[nH]c(=S)n(c23)C[C@@H]1C | - | RT-H208Y | - | 1.1 |
| CCC1(c2cccc(I)c2)Oc2ccccc2-n2cccc2C1=O | - | RT-L100I | nucleotide incorporation / radiometric | >200 |
| Nc1ccn([C@H]2CC[C@@H](COP(=O)(O)OP(=O)(O)OP(=O)(O)O)O2)c(=O)n1 | - | RT-A62V V75I F77L F116Y Q151M | nucleotide incorporation / radiometric | 5.19 |
| CCN1c2ncc(CCOc3ccc(C(=O)O)c4c3CCCC4)cc2C(=O)N(C)c2cccnc21 | - | RT-V106A | nucleotide incorporation / radiometric | >10 |
| CCC1(c2ccc(CNc3ccccc3)cc2)Oc2ccccc2-n2cccc2C1=O | - | RT-V106A | nucleotide incorporation / radiometric | 13.3 |
| CCN1c2ncc(CCOc3ccc4cc(C(=O)O)ccc4c3)cc2C(=O)N(C)c2cccnc21 | - | RT-Y188L | nucleotide incorporation / radiometric | >10 |
| Cc1cn([C@@H]2O[C@H](CO[Si](C)(C)C(C)(C)C)C3(OS(=O)(=O)C=C3N)[C@H]2O[Si](C)(C)C(C)(C)C)c(=O)n(C)c1=O | IIIB | RT-V106A | RT activity | >276 |
| CCOCn1c(Cc2ccccc2)c(C(C)C)c(=O)[nH]c1=O | - | RT-P225H | nucleotide incorporation / radiometric | 5 |
| O=C(O)Cn1cnc2c(Oc3ccccc3[N+](=O)[O-])nc(NC(=O)OCc3ccccc3)nc21 | NNRTI-resistant | L100I | nucleotide incorporation / radiometric | 14.3 |
| Cc1c(Sc2ccccc2)n(COCCO)c(=O)[nH]c1=O | - | RT-T139I N348K | nucleotide incorporation | 3.33 |
| CCN1c2ncc(CCOc3ccc(CCC(=O)O)c4ccccc34)cc2C(=O)Nc2c(C)ccnc21 | - | RT-Y188L | nucleotide incorporation / radiometric | >10 |
| CCC1(c2ccc(COc3cccc(Cl)c3)cc2)Oc2ccccc2-n2cccc2C1=O | - | RT-Y188L | nucleotide incorporation / radiometric | >100 |
| Cc1cn([C@H]2CC[C@@H](COP(=O)(O)OP(=O)(O)OP(=O)(O)O)O2)c(=O)[nH]c1=O | - | RT-E138K | nucleotide incorporation / radiometric | 1 |
| CCN1c2ncc(CCOc3ccc(/C(C)=C/C(=O)O)c4ccccc34)cc2C(=O)N(C)c2cccnc21 | - | RT-Y188L | nucleotide incorporation / radiometric | >10 |
| Cc1c(Cc2c(Cl)cccc2Cl)nc(S(=O)(=O)Cc2ccc(Br)cc2)[nH]c1=O | - | RT-K103N | nucleotide incorporation / radiometric | ~1 |
| Cc1cc(C)cc(S(=O)(=O)c2c(C(=O)NNCCO)[nH]c3ccc(Cl)cc23)c1 | - | RT-Y181I | nucleotide incorporation / radiometric | 76 |
| CCN1c2ncc(CCOc3ccc(/C=C(\C)C(=O)O)c4ccccc34)cc2C(=O)Nc2c(C)cc(F)nc21 | - | RT-K103N Y181C | nucleotide incorporation / radiometric | 1–10 |
| O=C1c2cccnc2C(=O)N1CCNC(=S)Nc1ccc(Br)cn1 | - | RT-Y181I | nucleotide incorporation | 10.5 |
| C=C(C)CCOCc1ccc(C2(CC)Oc3ccccc3-n3cccc3C2=O)cc1 | - | RT-Y181I | nucleotide incorporation / radiometric | >3.57 |

Repeating the first 7 entries:

smiles	strain or isolate	mutations	method	value
Cc1c(Cc2c(Cl)cccc2Cl)nc(SCc2ccc(C#N)cc2)[nH]c1=O	-	RT-181I	nucleotide incorporation / radiometric	>3.88
O=c1c2cccn2ccn1CCNC(=S)Nc1ccc(Br)cn1	-	RT-V106A	nucleotide incorporation	5.28
O=C(O)Cn1cnc2c(=O)[nH]c(NC(=O)OCc3ccccc3)nc21	NNRTI-resistant	Y181I	nucleotide incorporation / radiometric	2.55
Nc1ncnc2c1ncn2[C@H]1CC[C@@H](COP(=O)(O)OP(=O)(O)OP(=O)(O)O)O1	-	RT-T215Y	nucleotide incorporation / radiometric	2.74
Cc1ccc2c(c1)n(CCNC(=S)Nc1ccc(Br)cn1)c(=O)c1cccn12	-	RT-Y188L	nucleotide incorporation	25
Cc1cn([C@H]2C=C[C@@H](COP(=O)(O)OP(=O)(O)OP(=O)(O)O)O2)c(=O)[nH]c1=O	-	RT-Q151M	nucleotide incorporation / radiometric	3.03
CCc1cc(CCc2nc3c(Cl)ccc(Cl)c3o2)c(=O)[nH]c1C	-	RT-Y181C	nucleotide incorporation	12

Blank or dashed fields: not listed here. Fold resistance: result on the changed form divided by that on wild type. a–b is a range or a potency band.